Entries after “also recorded” stand apart in the source; their conditions may differ.
Test system: KSHV
Test: RT-qPCR of CHD4, LANA and K-Rta gene expression in BC3 cells
Format: cell-based, Kaposi's sarcoma-associated herpesvirus (KSHV)
Conditions: RT-qPCR normalized to 18S ribosomal RNA

CC[C@H](C)[C@H](NC(=O)[C@@H](NC(=O)[C@H](C)NC(=O)[C@H](Cc1c[nH]cn1)NC(=O)[C@H](CCCCN)NC(=O)[C@H](Cc1c[nH]c2ccccc12)NC(=O)CCNC(=O)[C@H](CCCNC(=N)N)NC(=O)[C@H](CCCNC(=N)N)NC(=O)[C@H](CCCNC(=N)N)NC(=O)[C@H](CCCN)NC(=O)[C@H](CCCNC(=N)N)NC(=O)[C@H](CCCNC(=N)N)NC(=O)[C@H](CCCCN)NC(=O)[C@H](CCCCN)NC(=O)[C@H](N)CCCNC(=N)N)C(C)C)C(=O)N[C@@H](Cc1ccccc1)C(=O)N[C@@H](Cc1c[nH]c2ccccc12)C(=O)NCC(=O)N[C@@H](CC(N)=O)C(=O)N[C@@H](CC(=O)O)C(=O)N1CCC[C@H]1C(=O)N[C@@H](Cc1ccc(O)cc1)C(=O)NCC(=O)N[C@@H](CC(C)C)C(=O)N[C@@H](CCCCN)C(=O)N[C@@H](CCCCN)C(=O)O [VGN73, (d-Arg}KKRR{ORN}RRR{β-Ala}WKHAVIFWGNDPYGLKK]
K-Rta-mediated lytic gene expression / KSHV reactivation: increased K-Rta-mediated lytic gene expression; also recorded: induces KSHV reactivation in KSHV latently infected PEL cells
